Source: the supplement of paper PMC7840683
± gives the standard deviation of the averaged measurements.

Tested on: HepaRG
Assay: LDH release cytotoxicity, % of total lysis control; higher = more cytotoxic
Details: 48 h
Method in brief: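 Single-lot HepaRG cells on collagen I-coated 96-well plates were exposed for 48 h in duplicate, in serum-free induction medium with 0.5% DMSO, to eight-point half-log series (test chemicals top 100 µM). Total lysis wells received 0.1% Triton X, and LDH leakage into 50 µL spent medium was read as resorufin fluorescence (CytoTox-ONE, Tecan Safire). Percent cytotoxicity was normalized to on-plate vehicle and total lysis controls and averaged over the duplicates.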

Row | SMILES | LDH release cytotoxicity (0.03162 µM) | LDH release cytotoxicity (0.1 µM) | LDH release cytotoxicity (0.3162278 µM) | LDH release cytotoxicity (1 µM) | LDH release cytotoxicity (3.16228 µM) | LDH release cytotoxicity (10 µM) | LDH release cytotoxicity (31.6228 µM) | LDH release cytotoxicity (100 µM)
1 | O=C1C2CC=CCC2C(=O)N1SC(Cl)(Cl)C(Cl)Cl (stereo unspecified) [Captafol] | -0.403 ± 0.24% | -1.07 ± 0.25% | -0.768 ± 0.056% | -0.614 ± 0.15% | -1.14 ± 0.044% | 0.17 ± 0.35% | 4.69 ± 0.55% | 31.5 ± 2.7%
2 | CCCCOP(=O)(OCCCC)OCCCC [Tributyl phosphate] | – | – | – | – | 0.066 ± 0.15% | 0.576 ± 0.17% | 3.52 ± 0.51% | –
